Experimental data from publication PMC8566587, “Selection for constrained peptides that bind to a single target protein” (Nature Communications, 2021).

Tested on: RBD (residues 328-533 of the SARS-CoV-2 Spike protein)
Format: cell-based

Sequence: TSFAEYWNLLSP [PMI]
- binding to RBD (in words): does not bind
- reduction of fluorescence output of the circuit (in words): almost two orders-of-magnitude lower
